Anti-infective test results gathered from many reports (values: NIAID ChemDB through PubChem).

Shared fields: whole-cell or culture tests; species: HIV-1; endpoint: EC50

a–b is a range or a potency band.

smiles,cells,changes,strain or isolate,value
Cc1cn([C@H]2C=C(F)[C@@H](CO)O2)c(=O)[nH]c1=O,MT-4,,IIIB,10–50 µM
CCc1c(C(=O)c2cc(C)cc(C)c2)n(Cc2ccncc2)c(=O)[nH]c1=O,MT-4,RT-Y181C,NNRTI-resistant (RT Y181C),0.01–0.041 µM
Nc1ncn([C@H]2C[C@H](O)[C@@H](CO)O2)c(=O)n1,MT-2,,LAI,0.003 µM
CCCc1c(OC#CC2CC2)c2cc(Cl)ccc2[nH]c1=O,MT-4,,,0.058 µM
C/C(=C(/CCO)SS/C(CCO)=C(\C)N(C=O)Cc1cnc(C)nc1N)N(C=O)Cc1cnc(C)nc1N,MT-4,,LAV-1,<50 µM
C=C1O[C@@H](n2cc(C)c(=O)n(C)c2=O)[C@H](O[Si](C)(C)C(C)(C)C)[C@]12OS(=O)(=O)C=C2N,MT-4,,,3.49 ± 1.57 µM
N#C[C@@H]1[C@H](O)[C@@H](n2cnc3c(N)ncnc32)O[C@H]1CO,PBMC,,,74.8 µM
O=c1[nH]c(SCc2cn[nH]n2)nc(-c2ccc(Cl)cc2)c1Cl,,,IIIB,0.8 µg/mL
CCCc1c(Cc2cccc3ccccc23)n(COCC)c(=O)[nH]c1=O,MT-4,,LAV,0.795 µM
CC1(C)O[C@H]2[C@H](n3cnc4c(N)ncnc43)O[C@](F)(CI)[C@H]2O1,,,,<10 µM
O=S(=O)(c1ccc(Cl)c2ccncc12)N1CCNCC1,,,LAI,>16.7 µM
O=c1[nH]cnc2c1ncn2[C@@H]1O[C@H](CO)[C@H]2CC=CC[C@H]21,CEM,,LAI,20.1 µM
CCCc1c(SC2CCCC2)c2cc(F)ccc2[nH]c1=O,MT-4,,,0.045 µM
Fc1cccc(CCNc2nc(SC3CCCC3)nc3c2cnn3CC(Cl)c2ccccc2)c1,,,,37.09 µM
CO[C@@H]1C[C@H](n2ncc3c(N)ncnc32)[C@@H](O)[C@H]1O,CEM,,IIIB,>250 µg/mL
Cc1cc(/C=C/C#N)cc(C)c1Nc1nc(Nc2ccc(C#N)cc2)ncc1C(O)OCc1cccnc1,MT-4,,K103N + Y181C,0.257 µM
Cc1cc(O)c(C)c(C(=O)N[C@@H](Cc2cccc(F)c2)[C@H](O)C(=O)N2CC(F)(F)C(C)(C)[C@H]2C(=O)NCC(C)(C)C)c1,,,,0.0088 µM
O=c1[nH]c(=O)n([C@H]2O[C@H](CO)[C@H]3CC=CC[C@H]32)cc1/C=C/Br,CEM,,LAI,34.2 µM
CC(C)c1c(Cc2cccc3ccccc23)n(COCc2ccccc2)c(=O)[nH]c1=O,CEM,,LAV,0.048 µM
CC1(C)[C@@H](CO)CC[C@@]1(C)Cn1nnc2c(N)ncnc21,CEM + CEM/0,,,>100 µg/mL
O=c1[nH]c(SCc2cn[nH]n2)nc(-c2ccccc2)c1Cl,,,IIIB,1.38 µg/mL
N#C[C@@H]1[C@H](O)[C@@H](n2cnc3c(=O)[nH]cnc32)O[C@H]1CO,PBMC,,,>100 µM
CCCc1c(Cc2cccc3ccccc23)n(COCCO)c(=O)[nH]c1=O,MT-4,,LAV,4.78 µM
Nc1ccn([C@H]2S[C@@H](CO)C=C2F)c(=O)n1,PBMC,,,0.12 µM
Cc1cccc(N2C(=O)CSC2c2c(F)cccc2Cl)n1,CEM + CEM-SS,,IIIB,0.031 µM
CC(C)CN(C[C@@H](O)[C@H](Cc1ccccc1)NC(=O)[C@@H](NC(=O)CNC(C)(C)c1cccc(F)c1)C(C)(C)C)S(=O)(=O)c1ccc2nc(N)sc2c1,MT-2,,RF,<1 µM
OC[C@@H]1CC[C@H](n2cnc3c(NC4CC4)cc(Cl)nc32)O1,C8166,,IIIB,200 µM
Cc1c(Cc2ccc3ccccc3c2)n(COCc2ccccc2)c(=O)[nH]c1=O,MT-4,,LAV,4.066 µM
Cc1cc(S(N)(=O)=O)ccc1NC(=O)COc1ccc(F)cc1Oc1ccc2cc(C#N)ccc2c1Br,,,A17,0.181 µM
Nc1ccn([C@@H]2O[C@H](CO)[C@@H](O)[C@H]2C(F)(F)F)c(=O)n1,,,,>100 µM
Cc1cn([C@@H]2O[C@H](COC(=O)N(C)C)C3(OS(=O)(=O)C=C3N)[C@H]2O[Si](C)(C)C(C)(C)C)c(=O)n(C)c1=O,CEM + CEM/0,,,≥50 µM
Cc1cn([C@H]2O[C@@H](CO)[C@H](C#N)[C@@H]2O)c(=O)[nH]c1=O,PBMC,,,>100 µM
CCCc1c(OCc2ccccc2)c2cc(Cl)ccc2[nH]c1=O,MT-4,,,1.48 µM
CCc1nn(CCO)c(CC)c1Oc1cc(C)cc(C#N)c1,SupT1,,RF,0.0003 µM
O=c1ccn([C@@H]2C[C@H](CO)CO2)c(=O)[nH]1,,,,>100 µM
N#CC1=C[C@@H](n2cnc3c(N)ncnc32)O[C@H]1CO,PBMC,,,67.4 µM
COC[C@@H](c1ccc(C(F)(F)F)cc1)N1CCN(C2(C)CCN(C(=O)c3c(C)ncnc3C)CC2)C[C@@H]1C,TZM-bl,,S,0.021 µM
Cc1cn([C@@H]2O[C@H](CN3CCN(Cc4ccccc4)CC3)C3(OS(=O)(=O)C=C3N)[C@H]2O[Si](C)(C)C(C)(C)C)c(=O)n(C)c1=O,CEM + CEM/0,,,>10 µM
Cc1csc(C(O)c2cnc(Nc3ccc(C#N)cc3)nc2Nc2c(C)cc(/C=C/C#N)cc2C)n1,MT-4,,PSI (IIIB),295 µM
CCCc1c(OC2CCCC2)c2cc(OC)ccc2[nH]c1=O,MT-4,RT-Y181C,Nevirapine-resistant (RT Y181C),>5 µM
Nc1ccn([C@@H]2C=C[C@H](CO)O2)c(=O)n1,PBMC,,,0.005 µM
CCCc1c(OC2CCCC2)c2ccccc2[nH]c1=O,MT-4,,,0.154 µM
CC(C)CN(C[C@@H](O)[C@H](Cc1ccccc1)NC(=O)[C@@H](NC(=O)CNC(C)(C)c1cccc(F)c1)C(C)(C)C)S(=O)(=O)c1ccc2ncccc2c1,MT-2,,RF,<1 µM
CCCc1c(Cc2cccc3ccccc23)n(COC)c(=O)[nH]c1=O,CEM,,LAV,>59.1 µM
OC[C@@H]1CC[C@H](n2cnc3c(NC4CCCC4)ccnc32)O1,C8166,,IIIB,40 µM
CNC(O)c1cnc(Nc2ccc(C#N)cc2)nc1Nc1c(C)cc(/C=C/C#N)cc1C,MT-4,,MDR,1.58 µM
CSC(C)(C)[C@H](NC(=O)CNC(C)(C)c1cccc(F)c1)C(=O)N[C@@H](Cc1ccccc1)[C@H](O)CN(CC(C)C)S(=O)(=O)c1ccc2ncccc2c1,MT-2,,RF,<1 µM
CC1(C)[C@@H](CO)CC[C@@]1(C)Cn1cc(Br)c(=O)[nH]c1=O,CEM + CEM/0,,,>100 µg/mL
CCOCn1c2c(c(=O)[nH]c1=O)CCCc1ccccc1-2,C8166,,IIIB,>5 µM
O=[N+]([O-])c1ccc2c(C=Nc3ccc(-c4nc5ccccc5s4)c(O)c3)c(O)ccc2c1,,,,>100 µM
Nc1nc2c(ncn2[C@@H]2O[C@H](CO)[C@@H](O)[C@H]2C(F)(F)F)c(=O)[nH]1,,,,>100 µM
CC(C)CN(C[C@@H](O)[C@H](Cc1ccccc1)NC(=O)[C@@H](NC(=O)CNC(C)(C)c1cccc(F)c1)C(C)(C)C)S(=O)(=O)c1ccc(N)cc1,MT-2,,RF,<1 µM
CCCc1c(OCC2CCCCC2)c2cc(Cl)ccc2[nH]c1=O,MT-4,RT-Y181C,Nevirapine-resistant (RT Y181C),0.798 µM
Nc1nc(N)c2ncn([C@@H]3O[C@H](CO)C[C@@H]3F)c2n1,MT-4,,IIIB,>100 µM
O=c1ccn([C@H]2C[C@H](CO)CO2)c(=O)[nH]1,,,,>100 µM
CCc1c(Cc2ccc3ccccc3c2)n(COCc2ccccc2)c(=O)[nH]c1=O,CEM,,LAV,3.324 µM
N#C[C@@H]1[C@H](O)[C@@H](n2ccc(=O)[nH]c2=O)O[C@H]1CO,PBMC,,,>100 µM
NC(N)=NCCNS(=O)(=O)c1cccc2cnccc12,,,LAI,>16.7 µM
C[C@H](Cn1cnc2c(N)ncnc21)OCP(=O)(O)OP(=O)(O)OCCOCn1cnc2c(=O)[nH]c(N)nc21,Macrophage,,BaL,>1 µM
CCCc1c(SCC2CCC2)c2cc(F)ccc2[nH]c1=O,MT-4,,,0.017 µM
NCCNS(=O)(=O)c1ccc(Cl)c2ccncc12,,,LAI,>16.7 µM
Nc1nc(=O)n([C@@H]2C=C[C@H](CO)O2)cc1F,PBMC,,,0.51 µM
O=S(=O)(c1cccc2cnccc12)N1CCNCC1,,,LAI,<16.7 µM
Nc1ccn([C@@H]2S[C@H](CO)C=C2F)c(=O)n1,PBMC,,,0.37 µM
O=c1[nH]c(=O)n(C[C@@H]2O[C@H](CO)[C@H]3CC=CC[C@H]32)cc1F,CEM,,LAI,>100 µM
NCCNS(=O)(=O)c1cccc2c(Cl)cccc12,,,LAI,>16.7 µM
O=C1NN(c2ccc(Br)cc2)C(=O)C1Cc1ccc([N+](=O)[O-])o1,MDM,,BaL,0.7 µM
COCCOC(O)c1cnc(Nc2ccc(C#N)cc2)nc1Nc1c(C)cc(/C=C/C#N)cc1C,MT-4,,K103N + Y181C,0.03162 µM
COP(=O)(c1cc(C)cc(CCC#N)c1)c1c(C(N)=O)[nH]c2ccc(Cl)cc12,PBMC,,NL4-3,0.0015 µM
CC1(C)[C@@H](CO)CC[C@@]1(C)Cn1ccc(=O)[nH]c1=O,CEM + CEM/0,,,>100 µg/mL
Cc1cn([C@@H]2O[C@H](COS(=O)(=O)c3ccccc3)C3(OS(=O)(=O)C=C3N)[C@H]2O[Si](C)(C)C(C)(C)C)c(=O)n(C)c1=O,MT-4,,,24 ± 9.7 µM
CC(C)CN(C[C@@H](O)[C@H](Cc1ccccc1)NC(=O)[C@@H](NC(=O)CNC(C)(C)c1cccc(F)c1)C(C)C)S(=O)(=O)c1ccc2ncccc2c1,MT-2,,RF,<1 µM
Cc1c(Cc2cccc3ccccc23)n(COCCO)c(=O)[nH]c1=O,CEM,,LAV,0.559 µM
CC(C)CN(C[C@@H](O)[C@H](Cc1ccccc1)NC(=O)[C@@H](NC(=O)[C@@H](C)NC(C)(C)c1ccccc1)C(C)(C)C)S(=O)(=O)c1ccc2ncccc2c1,MT-2,,RF,<1 µM
O=C1Nc2ccc(Cl)cc2[C@@](C#CC2CC2)(C(F)(F)F)O1,MT-4,V179F/Y181C,,0.0058 µM
CC1(C)[C@@H](CO)CC[C@@]1(C)Cn1cnc2c(=O)[nH]cnc21,CEM + CEM/0,,,>100 µg/mL
Cc1cn([C@@H]2O[C@H](COC(=S)N(C)C)C3(OS(=O)(=O)C=C3N)[C@H]2O[Si](C)(C)C(C)(C)C)c(=O)n(C)c1=O,MT-4,,,>10 µM
[N-]=[N+]=N[C@H]1[C@@H](F)[C@H](n2ccc(=O)[nH]c2=O)O[C@@H]1CO,MT-4,,IIIB,8.4 µM
COC(O)c1cnc(Nc2ccc(C#N)cc2)nc1Nc1c(C)cc(/C=C/C#N)cc1C,MT-4,,Y181C,0.01175 µM
CO[C@@H]1C[C@H](n2ccc3c(N)ncnc32)[C@@H](O)[C@H]1O,CEM,,IIIB,>250 µg/mL
CC(C)CN(C[C@@H](O)[C@H](Cc1ccccc1)NC(=O)[C@@H](NC(=O)CNC(C)(C)c1ccccc1)C(C)(C)C)S(=O)(=O)c1ccc2ncccc2c1,MT-2,,RF,<1 µM
N#C[C@@H]1[C@H](O)[C@@H](n2ccc(N)nc2=O)O[C@H]1CO,PBMC,,,>100 µM
O=c1[nH]ncc(NN/C=C2/C=NC3C=CC=CC23)c1Cl,MDM,,BaL,0.04 µM
CCC(=O)Nc1cc(NC(=O)CSc2nc(CCc3ccccc3)nc3sc4c(c23)CCCC4)ccc1C,,,,64.5 µM
CNc1cc(Cl)nc2c1ncn2[C@H]1CC[C@@H](CO)O1,C8166,,IIIB,400 µM
CCC(C)[C@H](NC(=O)CNC(C)(C)c1cccc(F)c1)C(=O)N[C@@H](Cc1ccccc1)[C@H](O)CN(CC(C)C)S(=O)(=O)c1ccc2ncccc2c1,MT-2,,RF,<1 µM
Nn1ccnc1,,,IIIB,0.2–4 µg/mL
CC(C)c1c(SCC2CCC2)c2cc(F)ccc2[nH]c1=O,MT-4,RT-Y181C,Nevirapine-resistant (RT Y181C),0.068 µM

7 of the rows above, restated:

smiles | cells | changes | strain or isolate | value
NCCNS(=O)(=O)c1cccc2c(Cl)cccc12 |  |  | LAI | >16.7 µM
O=c1[nH]c(=O)n(C[C@@H]2O[C@H](CO)[C@H]3CC=CC[C@H]32)cc1F | CEM |  | LAI | >100 µM
CCCc1c(OCc2ccccc2)c2cc(Cl)ccc2[nH]c1=O | MT-4 |  |  | 1.48 µM
Nc1nc(N)c2ncn([C@@H]3O[C@H](CO)C[C@@H]3F)c2n1 | MT-4 |  | IIIB | >100 µM
O=c1ccn([C@H]2C[C@H](CO)CO2)c(=O)[nH]1 |  |  |  | >100 µM
CCOCn1c2c(c(=O)[nH]c1=O)CCCc1ccccc1-2 | C8166 |  | IIIB | >5 µM
CCCc1c(OCC2CCCCC2)c2cc(Cl)ccc2[nH]c1=O | MT-4 | RT-Y181C | Nevirapine-resistant (RT Y181C) | 0.798 µM

Lines come from different laboratories, so protocols vary. ECn is the concentration giving n% inhibition of infection, replication or growth. Blank or dashed fields: not listed here.